{"source": "patent US11279728B2", "about": "“Broad spectrum viral inhibitor” (Albert Einstein College of Medicine, priority 2017, dated 2022)", "test_system": "ZIKV (MR766, PRVABC59, R103451)", "assay": "ZIKV replication and release from Vero cells", "settings": "dependent on dose, MOI, duration of infection and strain", "data": [{"smiles": "Nc1ccn([C@@H]2OC(CO)=C[C@H]2O)c(=O)n1", "note": "[ddhC, 3′-deoxy-3′,4′-didehydro-cytidine]", "values": [{"measurement": "reduction in ZIKV virus titers", "result": "1-2 orders of magnitude"}]}]}
